Values from PubChem BioAssay AID624099 (ICCB-Longwood, 2012).
Aim: 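Knock-downs relieving repression by E2 of an HPV18 LCR luciferase reporter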 (primary screen). System: human C33A cervical carcinoma cells (HPV-negative) stably expressing BPV1 E2 and an HPV18 LCR luciferase reporter. Knock-down reagent: siRNA pool against human genes, 40 nM. Time to read-out: 72 h. Measurement: 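Per-well luciferase luminescence, z-scored on each plate against the plate mean and SD with control wells left out, then averaged across three replicate plates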. Scale: mean z-score and z-score: higher = stronger reporter signal, weaker E2 silencing. Rule for the call: 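Mean z ≥ 2 together with z ≥ 2 in two or more of the three replicates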.
In all, the deposit lists about 21,000 reagents; below is a random part of them. Over the whole deposit, 497 (2.4%) are marked active. 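Higher z means weaker E2 silencing; only reporter increases were scored, and knock-downs that hurt cell survival may mask genuine repressor factors.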 The numbers tell different reagents against one gene apart.

gene | reagent no. | mean z-score | z-score, replicate A | z-score, replicate B | z-score, replicate C | outcome
RPS12P3 | 1 | -1.13 | -1.26 | -0.94 | -1.18 | inactive
OGG1 | 1 | -1.33 | -1.47 | -1.21 | -1.32 | inactive
TUBB8P11 | 1 | 1.01 | 1.36 | 1.11 | 0.58 | inactive
IFNA10 | 1 | 0.07 | 0.24 | -0.13 | 0.09 | inactive
IPMK | 1 | 0.81 | 0.49 | 0.94 | 0.99 | inactive
CER1 | 1 | -0.27 | -0.27 | -0.43 | -0.1 | inactive
NUTM2B | 1 | -0.37 | -0.3 | -0.63 | -0.19 | inactive
FAM20C | 1 | 0.22 | -0.1 | 0.23 | 0.52 | inactive
MFSD11 | 1 | -0.44 | -0.44 | -0.58 | -0.31 | inactive
NBPF12 | 1 | 0.98 | 0.26 | 1.34 | 1.34 | inactive
LARP7 | 1 | 1.57 | 2.09 | 1.56 | 1.05 | inactive
OR3A3 | 1 | -0.11 | -0.2 | 0 | -0.14 | inactive
TCFL5 | 1 | 0.61 | 0.68 | 0.76 | 0.38 | inactive
P3H2 | 1 | 0.56 | 0.5 | 0.26 | 0.92 | inactive
NDST2 | 1 | -0.25 | 0.02 | -0.49 | -0.28 | inactive
S100Z | 1 | -0.18 | 0.05 | -0.33 | -0.24 | inactive
RBM20 | 1 | 0.44 | 1.4 | -0.02 | -0.07 | inactive
LYRM2 | 1 | -1.21 | -1.09 | -1.06 | -1.48 | inactive
NDP | 1 | -0.5 | -0.68 | -0.34 | -0.47 | inactive
DVL2 | 1 | 2.49 | 2.47 | 2.61 | 2.4 | active
JADE3 | 1 | -0.24 | -0.19 | -0.23 | -0.3 | inactive
SPATA3 | 1 | 0.06 | 0.24 | -0.07 | 0.02 | inactive
DCAF13 | 1 | -0.34 | -0.24 | -0.32 | -0.46 | inactive
H2AC11 | 1 | 0.76 | 1.02 | 0.62 | 0.64 | inactive
MMP17 | 1 | -0.19 | -0.1 | -0.26 | -0.21 | inactive
HSPB6 | 1 | 0.26 | -0.08 | 0.13 | 0.74 | inactive
PASD1 | 1 | -0.93 | -1.48 | -0.92 | -0.39 | inactive
NPHP4 | 1 | -0.4 | -0.48 | -0.43 | -0.31 | inactive
REELD1 | 1 | 0.73 | 0.73 | 0.76 | 0.69 | inactive
CACNA1H | 1 | 1.13 | 1.11 | 1.12 | 1.16 | inactive
LOC389264 (retired record) | 1 | -2.06 | -1.59 | -2.33 | -2.27 | inactive
FBXW10B | 1 | 0.61 | 0.62 | 0.33 | 0.87 | inactive
SPMIP5 | 1 | -0.16 | -0.82 | 0.11 | 0.22 | inactive
NT5C3B | 1 | -0.15 | -0.38 | 0.02 | -0.09 | inactive
CSDE1 | 1 | 0.42 | -0.43 | 0.82 | 0.86 | inactive
NTHL1 | 1 | 0.81 | 1.15 | 0.36 | 0.9 | inactive
NRP1 | 1 | 1.14 | 0.93 | 1.4 | 1.1 | inactive
TSTD2 | 1 | -1.32 | -1.18 | -1.17 | -1.62 | inactive
LOC392533 (retired record) | 1 | -2 | -2.09 | -2.43 | -1.47 | inactive
MT-ND5 | 1 | 1.92 | 1.86 | 1.74 | 2.16 | inactive

The list goes on; the last 5 above are carried over.
gene | reagent no. | mean z-score | z-score, replicate A | z-score, replicate B | z-score, replicate C | outcome
NTHL1 | 1 | 0.81 | 1.15 | 0.36 | 0.9 | inactive
NRP1 | 1 | 1.14 | 0.93 | 1.4 | 1.1 | inactive
TSTD2 | 1 | -1.32 | -1.18 | -1.17 | -1.62 | inactive
LOC392533 (retired record) | 1 | -2 | -2.09 | -2.43 | -1.47 | inactive
MT-ND5 | 1 | 1.92 | 1.86 | 1.74 | 2.16 | inactive
TXLNGY | 1 | 0.5 | 0.52 | 0.5 | 0.49 | inactive
TXLNGY | 2 | 0.03 | -0.04 | -0.22 | 0.36 | inactive
DDX49 | 1 | -1.51 | -1.67 | -1.6 | -1.25 | inactive
LOC130839 (retired record) | 1 | 0.19 | 0.27 | 0.02 | 0.29 | inactive
SERTAD4 | 1 | -0.63 | -0.4 | -0.78 | -0.72 | inactive
GNG2 | 1 | -0.47 | -0.39 | -0.26 | -0.76 | inactive
LINC01538 | 1 | 0.68 | 0.79 | 0.55 | 0.69 | inactive
ADM | 1 | -1.5 | -1.45 | -1.63 | -1.41 | inactive
FOXD1 | 1 | 0.58 | 0.87 | 0.33 | 0.55 | inactive
PAQR5 | 1 | -0.03 | 0.02 | -0.09 | -0.02 | inactive
MCCD1 | 1 | 0.35 | 0.33 | 0.35 | 0.35 | inactive
LRRC74A | 1 | 2.06 | 2.24 | 1.77 | 2.18 | active
PLEKHB2 | 1 | -0.66 | -0.86 | -0.58 | -0.53 | inactive
CYREN | 1 | 1.15 | 0.97 | 0.94 | 1.55 | inactive
SFTA2 | 1 | 0.46 | 0.54 | 0.3 | 0.55 | inactive
TMEM126A | 1 | -0.16 | -0.25 | -0.04 | -0.2 | inactive
MGAT1 | 1 | 0.51 | 0.35 | 0.32 | 0.86 | inactive
CPXM2 | 1 | 0.72 | 0.82 | 0.84 | 0.5 | inactive
RPS4Y2 | 1 | 0.19 | 0.04 | 0.53 | -0.01 | inactive
SNX30 | 1 | 1.25 | 0.79 | 1.57 | 1.38 | inactive
ANKRD30A | 1 | -0.78 | -1.14 | -0.2 | -1 | inactive
DUSP11 | 1 | -0.96 | -0.79 | -1.31 | -0.79 | inactive
TRAPPC12 | 1 | 0.66 | 0.88 | 0.37 | 0.73 | inactive
TK1 | 1 | 0.04 | 0.12 | -0.09 | 0.09 | inactive
NHS | 1 | -0.21 | -0.09 | -0.04 | -0.49 | inactive
BZW1 | 1 | -0.02 | -0.12 | -0.09 | 0.16 | inactive
CFB | 1 | -0.11 | 0.15 | -0.34 | -0.13 | inactive
CYB5R4 | 1 | -0.01 | -0.24 | 0.22 | -0.02 | inactive
DELEC1 | 1 | 0.6 | 0.66 | 0.67 | 0.48 | inactive
VPS4B | 1 | 0.17 | 0.12 | 0.57 | -0.16 | inactive
HPRT1 | 1 | -1.48 | -1.48 | -1.31 | -1.65 | inactive
KIRREL3 | 1 | 1.24 | 1.48 | 1.19 | 1.04 | inactive
TBX18 | 1 | -0.17 | 0.07 | -0.24 | -0.34 | inactive
